# How the values were obtained:
# [1] = Stain test (colour change of treated substrate, Delta E criteria); conditions: 1 hr
# [2] = Wash test (metal remains adhered to substrate after multiple washes); conditions: 1 hr
# [3] = 10 ppm zinc metal loading, white cotton duvet, 60 C.-100 C.
# [4] = 20 ppm zinc metal loading, white cotton duvet, 60 C.-100 C.
# [5] = 100 ppm zinc metal loading, white cotton duvet, 60 C.-100 C.
# [6] = 500 ppm zinc metal loading, white cotton duvet, 60 C.-100 C.
# [7] = 1000 ppm zinc metal loading, white cotton duvet, 60 C.-100 C.
# [8] = 3000 ppm zinc metal loading, white cotton duvet, 60 C.-100 C.
# [9] = 10 ppm silver metal loading, white cotton fabric, 20 C.
# [10] = 20 ppm silver metal loading, white cotton fabric, 20 C.
# [11] = 100 ppm silver metal loading, white cotton fabric, 20 C.
# [12] = 500 ppm silver metal loading, white cotton fabric, 20 C.
# [13] = 1000 ppm silver metal loading, white cotton fabric, 20 C.
# [14] = 3000 ppm silver metal loading, white cotton fabric, 20 C.
# [15] = 10 ppm silver metal loading, dark Coolmax polyester fabric, 20 C.
# [16] = 20 ppm silver metal loading, dark Coolmax polyester fabric, 20 C.
# [17] = 100 ppm silver metal loading, dark Coolmax polyester fabric, 20 C.
# [18] = 500 ppm silver metal loading, dark Coolmax polyester fabric, 20 C.
# [19] = 1000 ppm silver metal loading, dark Coolmax polyester fabric, 20 C.
# [20] = 3000 ppm silver metal loading, dark Coolmax polyester fabric, 20 C.
substance,measurement,setting,value
[Cu(NH3)4(H2O)n]SO4 [Example 8],Stain test Pass,[1]; [3],Yes
same,Stain test Pass,[1]; [4],Yes
same,Stain test Pass,[1]; [5],Yes
same,Stain test Pass,[1]; [6],Yes
same,Stain test Pass,[1]; [7],Yes
same,Stain test Pass,[1]; [8],Yes
same,Wash test Pass,[2]; [3],Yes
same,Wash test Pass,[2]; [4],Yes
same,Wash test Pass,[2]; [5],Yes
same,Wash test Pass,[2]; [6],Yes
same,Wash test Pass,[2]; [7],Yes
same,Wash test Pass,[2]; [8],No
[Ag(NH3)2]-oxalate [Example 3],Stain test Pass,[1]; [9],Yes
same,Stain test Pass,[1]; [10],Yes
same,Stain test Pass,[1]; [11],Yes
same,Stain test Pass,[1]; [12],Yes
same,Stain test Pass,[1]; [13],No
same,Stain test Pass,[1]; [14],No
same,Wash test Pass,[2]; [9],Yes
same,Wash test Pass,[2]; [10],Yes
same,Wash test Pass,[2]; [11],Yes
same,Wash test Pass,[2]; [12],Yes
same,Wash test Pass,[2]; [13],Yes
same,Wash test Pass,[2]; [14],Yes
[Ag(NH3)2]-formate [Example 5],Stain test Pass,[1]; [15],Yes
same,Stain test Pass,[1]; [16],Yes
same,Stain test Pass,[1]; [17],Yes
same,Stain test Pass,[1]; [18],Yes
same,Stain test Pass,[1]; [19],Yes
same,Stain test Pass,[1]; [20],Yes
same,Wash test Pass,[2]; [15],Yes
same,Wash test Pass,[2]; [16],Yes
same,Wash test Pass,[2]; [17],Yes
same,Wash test Pass,[2]; [18],Yes
same,Wash test Pass,[2]; [19],Yes
same,Wash test Pass,[2]; [20],Yes

# Reference: patent publication US20210329924A1, “METAL-BASED ANTIMICROBIAL COMPOSITION AND METHOD OF USING” (Microbonds Inc., priority 2020, published 2021)
